From patent US12378521B2, “Method for enhancing production of genetically engineered autologous T cells” (AMGEN INC., priority 2020, dated 2025)

Tested on: apheresed donor cells
Test: Cell growth and viability, IL-2 withdrawal (Example 8)
Format: cell-based, human
Details: IL-2 withdrawal at Day 5 and Day 6

Substance: IL-2: soluble cytokine, 300 IU/ml in OpTmizer complete media
- Cell growth and viability: minimal or no impact on cell growth or viability
